{"source": "PubChem BioAssay AID504761 (Drosophila RNAi Screening Center, 2011)", "purpose": "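Insect host genes that dengue virus relies on to spread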 (primary screen)", "cells": "D.Mel-2 cells from Drosophila", "reagent": "long dsRNA against Drosophila genes", "treatment": "infection with dengue virus type 2; dose and infection time not stated", "measured": "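Per well on two replicate plates, imaging gave the percent of cells positive for viral envelope protein, ranked by infection, and a nuclear count of cells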", "direction": "infection score: higher = more virus-infected cells; cell count: higher = more cells in the well", "active means": "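Very low infection ranking in both replicate wells (chance probability at most 0.065), then a retest showing infection dropped 1.5-fold or more at p below 0.05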", "meaning of the calls": "active = confirmed: knock-down lowers infection; inactive = not picked or not confirmed", "note": "The deposit covers about 22,000 reagents; below is an unselected part of those that have a named target and a result. Over the whole deposit, 116 (0.52%) were called active. 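Calls depend on retest data that are not deposited; infection was ranked per plate without normalising between plates; the unit of the infection score is not given.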 Raw values vary from plate to plate and are shown uncorrected. Entries without a mark were called inactive. Further read-outs or replicates are left out here. Not given: the amount of reagent, the time to read-out."}
{"gene knocked down":"Elal","amplicon":"DRSC16662","infection score, replicate 1":16.1,"cell count, replicate 1":5971}
{"gene knocked down":"MICU1","amplicon":"DRSC02752","infection score, replicate 1":5.84,"cell count, replicate 1":6130}
{"gene knocked down":"lbe","amplicon":"DRSC16985","infection score, replicate 1":2.11,"cell count, replicate 1":6582}
{"gene knocked down":"lbe","amplicon":"DRSC23597","infection score, replicate 1":0.9,"cell count, replicate 1":6366}
{"gene knocked down":"CG11454","amplicon":"DRSC00310","infection score, replicate 1":13.7,"cell count, replicate 1":5809}
{"gene knocked down":"CG11454","amplicon":"DRSC25138","infection score, replicate 1":2.68,"cell count, replicate 1":6035}
{"gene knocked down":"Non3","amplicon":"DRSC16359","infection score, replicate 1":6.14,"cell count, replicate 1":6251}
{"gene knocked down":"pain","amplicon":"DRSC04273","infection score, replicate 1":6.35,"cell count, replicate 1":6519}
{"gene knocked down":"pain","amplicon":"DRSC28351","infection score, replicate 1":12.1,"cell count, replicate 1":6352}
{"gene knocked down":"Reg-2","amplicon":"DRSC08690","infection score, replicate 1":9.36,"cell count, replicate 1":5864}
{"gene knocked down":"Reg-2","amplicon":"DRSC26888","infection score, replicate 1":12,"cell count, replicate 1":6043}

Part of the list above, reformatted:
lbe [DRSC16985]
- infection score, replicate 1: 2.11
- cell count, replicate 1: 6582

lbe [DRSC23597]
- infection score, replicate 1: 0.9
- cell count, replicate 1: 6366

Additional reagents follow:
{"gene knocked down":"Nup98-96","amplicon":"DRSC14209","infection score, replicate 1":13.1,"cell count, replicate 1":3791}
{"gene knocked down":"Nup98-96","amplicon":"DRSC14210","infection score, replicate 1":13.2,"cell count, replicate 1":1015}
{"gene knocked down":"CG30496","amplicon":"DRSC06805","infection score, replicate 1":8.07,"cell count, replicate 1":6602}
{"gene knocked down":"CG8010","amplicon":"DRSC20072","infection score, replicate 1":12.6,"cell count, replicate 1":6366}
{"gene knocked down":"CG8010","amplicon":"DRSC26277","infection score, replicate 1":4.16,"cell count, replicate 1":5914}
{"gene knocked down":"CG15208","amplicon":"DRSC19654","infection score, replicate 1":2.89,"cell count, replicate 1":6445}
{"gene knocked down":"CG11771","amplicon":"DRSC14379","infection score, replicate 1":9.29,"cell count, replicate 1":5794}
{"gene knocked down":"CG11771","amplicon":"DRSC27732","infection score, replicate 1":3.09,"cell count, replicate 1":6474}
{"gene knocked down":"jim","amplicon":"DRSC11889","infection score, replicate 1":3.19,"cell count, replicate 1":6547}
{"gene knocked down":"jim","amplicon":"DRSC23829","infection score, replicate 1":3.58,"cell count, replicate 1":3826}
